Patent US20160024155A1 (published 2016)

What follows are binders tested against A/South Carolina/1/1918 (H1N1) hemagglutinin ectodomain (Influenza A virus A/South …).

Binder | fold increase in binding affinity relative to original design (HB36) [fold]
HB36 clone A2 ([change], [change], [change]) (designed binder) MSNAMDGQQLNRLLLEWIGAWDPFGLGKDAYDVEAEAVLQAVYETELAFDLAMRIMWIYAFAFNRPILFLHAQKLARRLLELKQAASSPLPLE | > 10
HB36 clone E1 ([change], [change]) (designed binder) MSNAMDGQQLNRLLLEWICAWDPFGLGKDAYDVEAEAVLQAVYETEYAFDLAMRIMWIYAFAFNRPIPFPHAQKLARRLLELKQAASSPLPLE | > 10
HB36 clone B3 ([change]) (designed binder) MSNAMDGQQLNRLLLEWIGAWDPFGLGKDAYDVEAEAVLQAVYETERAFDLAMRIMWIYAFAFNRPIPFPHAQKLARRLLELKQAASSPLPLE | > 10
HB36 clone C4 ([change], [change]) (designed binder) MSNAMDGQQLNRLLLEWIGAWDPFGLGKDAYDVEAEAVLQAVYETEHAFDLAMRIMWIYAFAFNRPIPFSHAQKLARRLLELKQAASSPLPLE | > 10
HB36 clone D3 ([change], [change]) (designed binder) MSNAMDSQQLNRLLLEWIGAWDPFGLGKDAYDVEAEAVLQAVYETENAFDLAMRIMWIYAFAFNRPIPFPHAQKLARRLLELKQAASSPLPLE | > 10
HB36 clone C3 ([change]) (designed binder) MSNAMDGQQLNRLLLEWIGAWDPFGLGKDAYDVEAEAVLQAVYETEHAFDLAMRIMWIYAFAFNRPIPFPHAQKLARRLLELKQAASSPLPLE | > 10
HB36 clone A4 ([change], [change]) (designed binder) MSNAMDGQQLNRLLLEWIGAWDPFGLGKDAYDVEAEAVLQAVYETERAFDLAMRIMWIYAFAFNRPIPFLHAQKLARRLLELKQAASSPLPLE | > 10
HB36 clone B6 ([change]) (designed binder) MSNAMDGQQLNRLLLEWIGAWDPFGLGKDAYDVEAEAVLQAVYETEWAFDLAMRIMWIYAFAFNRPIPFPHAQKLARRLLELKQAASSPLPLE | > 10
HB36 clone B2 ([change]) (designed binder) MSNAMDGQQLNRLLLEWIGAWDPFGLGKDAYDVEAEAVLQAVYETEEAFDLAMRIMWIYAFAFNRPIPFPHAQKLARRLLELKQAASSPLPLE | > 10
